This is an account of results in publication PMC8605023.

Protein sequences, listed by entry. Tags and fused reporters are not part of them. Residues count along the entry.
UniProt Q93009, 63-205 limits assumed: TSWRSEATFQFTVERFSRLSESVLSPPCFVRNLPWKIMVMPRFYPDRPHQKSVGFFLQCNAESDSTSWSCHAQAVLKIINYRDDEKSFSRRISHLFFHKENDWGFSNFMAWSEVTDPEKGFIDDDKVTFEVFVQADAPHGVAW

As usually defined, the IC50 is the concentration that inhibits the measured activity by half. A higher IC50 goes with weaker potency in that assay.

Structures are written as SMILES. Structures were worked out from names or drawings and are uncertain.

The target of the assay is USP7 (Homo sapiens, UniProt Q93009). Nature of the assay: FP displacement assay, USP7. The class given is binding.

Regarding `CSCC[C@H](NC(=O)[C@H](CO)NC(=O)[C@H](CC(N)=O)NC(=O)[C@H](CCC(N)=O)NC(=O)[C@H](CC(C)C)NC(=O)[C@H](Cc1ccc(O)cc1)NC(C)=O)C(=O)N[C@@H](CO)C(=O)NCC(=O)N[C@@H](C)C(=O)N[C@@H](CO)C(=O)N[C@@H](C)C(=O)N[C@@H](CC(=O)O)C(=O)N[C@@H](CO)C(=O)N[C@H](C(=O)N[C@@H](CCC(N)=O)C(=O)N[C@@H](C)C(N)=O)[C@@H](C)O`, the IC50 (FP displacement of 10 nM FITC-labeled probe, protein at 4 x KD of probe, 50 mM phosphate buffer pH 7.5) was 690 µM. Where the note is “Ki displacement, unlabelled peptide, phosphate buffer pH 7.5”, the “Ki displacement/Kd direct binding” value is on record as 96 µM.
